Measured values from several laboratories, pooled; numbers as filed in NIAID ChemDB.

All rows: growth or infection tests; species: Candida albicans

Lines come from different laboratories, so protocols vary. MIC50, MIC90 and the like: level of inhibition, or share of isolates inhibited. Blank or dashed fields: not listed here. ECn is the concentration giving n% inhibition of infection, replication or growth.

smiles	method	read-out	strain	value
CC(C)(C)c1ccc(COC(Cn2ccnc2)c2ccc(Cl)cc2)cc1	-	MIC	3M	128 µg/mL
COc1ccc(C(Cc2ccccc2Cl)n2ccnc2)cc1	-	MIC	-	63 µg/mL
C[C@@H](c1ncncc1F)[C@](O)(Cn1cncn1)c1ccc(F)cc1F	-	MIC80	JL2052 (FLU-R)	0.5 µg/mL
CC(=O)/C=C1\Sc2ccccc2N1/C1=C/CCCCCCCCCC1	-	MIC	ATCC 10231	≥100 µg/mL
Nn1c(SCC(O)(Cn2cncn2)c2ccc(Cl)cc2Cl)nnc1-c1ccncc1	broth dilution	MIC	IRFC 192	>64 µg/mL
O=Cc1cc(-c2ccccc2Cl)on1	-	EC50	-	17.6 µg/mL
Nn1c(SCC(O)(Cn2cncn2)c2ccc(F)cc2F)nnc1-c1ccc(F)cc1	broth dilution	MIC	IRFC 192	>64 µg/mL
Cc1ccc(C(Cn2ccnc2)OC/C=C/c2ccccc2)cc1	-	MIC	CA6	128 µg/mL
Nn1c(SCC(O)(Cn2cncn2)c2ccc(Cl)cc2Cl)nnc1-c1ccc(O)cc1	broth dilution	MIC	IRFC 192	>64 µg/mL
Cc1onc(-c2ccc(OCc3ccccc3)cc2)c1C=O	-	MIC	-	>50 µg/mL
Clc1ccc(C(Cn2ccnc2)OCc2cccc3ccccc23)c(Cl)c1	-	MIC	3M	8 µg/mL
Nn1c(SCC(O)(Cn2cncn2)c2ccc(F)cc2F)nnc1-c1cccc(Br)c1	broth dilution	MIC	PTCC 6027	>64 µg/mL
O=Cc1cc(-c2ccc(Cl)cc2Cl)on1	-	EC50	-	7.5 µg/mL
Nn1c(SCC(O)(Cn2cncn2)c2ccc(Cl)cc2Cl)nnc1-c1cccc(Br)c1	broth dilution	MIC	IRFC 37	>64 µg/mL
Cc1ccc2c(c1)S/C(=C\C(=O)C(C)C)N2C1=CCCCCC1	-	MIC	ATCC 10231	≥100 µg/mL
Nn1c(SCC(O)(Cn2cncn2)c2ccc(Cl)cc2Cl)nnc1-c1ccccc1	broth dilution	MIC	IRFC 36	4 µg/mL
Cc1ccc(C(Cn2ccnc2)OCc2ccc(C(C)(C)C)cc2)cc1	-	MIC	CDCB385	128 µg/mL
Nn1c(SCC(O)(Cn2cncn2)c2ccc(F)cc2F)nnc1-c1ccc(O)cc1	broth dilution	MIC	IRFC 192	>64 µg/mL
Cc1onc(-c2ccccc2)c1C=O	-	MIC	-	>50 µg/mL
CCCCN1/C(=C2\CCN(Cc3ccccc3)CC2=O)Sc2ccccc21	-	MIC	ATCC 14053	50 µg/mL
CC[C@@H]([C@H](C)O)n1ncn(-c2ccc(N3CCN(c4ccc(OC[C@@H]5CO[C@@](Cn6cncn6)(c6ccc(F)cc6F)C5)cc4)CC3)cc2)c1=O	-	MIC	Isolate CA-6	>4 µg/mL
C[C@H]1[C@H](O)[C@@H](C)/C=C/C=C/C=C/C=C/C=C/C=C/C=C/[C@H](O[C@@H]2O[C@H](C)[C@@H](O)[C@H](N)[C@@H]2O)C[C@@H]2O[C@](O)(C[C@@H](O)C[C@@H](O)CC[C@H](O)[C@@H](O)C[C@@H](O)CC(=O)O[C@H]1C)C[C@H](O)[C@H]2C(=O)O	-	MIC50	Fluconazole-resistant 4 isolates pooled	0.5 µg/mL
Cc1ccc(C(c2ccn(-c3ccccc3)c2)n2ccnc2)cc1	-	MIC	-	1.2 µg/mL
O=C(/C=C1\Sc2ccccc2N1C1CCCCCC1)c1ccccc1	-	MIC	ATCC 10231	50 µg/mL
CCCn1cc(-c2ccc(Cl)cc2)c(C(c2ccccc2)n2ccnc2)c1	-	MIC	-	0.023 µg/mL
Cc1ccc(C(Cn2ccnc2)OCc2ccc(-c3ccccc3)cc2)cc1	-	MIC	PR1	128 µg/mL
CC(=O)/C=C1\Sc2ccccc2N1C1CCCCCC1	-	MIC	ATCC 10231	50 µg/mL
Nn1c(SCC(O)(Cn2cncn2)c2ccc(Cl)cc2Cl)nnc1-c1ccc(F)cc1	broth dilution	MIC	IRFC 192	>64 µg/mL
N=C(N)c1ccc2nc(-c3ccc(-c4nc5ccc(C(=N)N)cc5[nH]4)[nH]3)[nH]c2c1	-	MIC	Isolate CA1247	0.78 µg/mL
C=CCc1ccc(OC)c(OC)c1	turbidity	MIC90	ATCC 44829	345 µg/mL
Clc1ccc(-c2c[nH]cc2C(c2ccccc2)n2ccnc2)cc1	-	MIC	-	0.66 µg/mL
CCC(C)n1ncn(-c2ccc(N3CCN(c4ccc(OC[C@H]5CO[C@](Cn6cncn6)(c6ccc(Cl)cc6Cl)O5)cc4)CC3)cc2)c1=O	-	MIC	Isolate CA-7	>8 µg/mL
CCn1cc(-c2ccc(Cl)c(Cl)c2)c(C(c2ccc(C)cc2)n2ccnc2)c1	-	MIC	-	0.47 µg/mL
Clc1ccc(C(Cn2ccnc2)OCc2cccc3ccccc23)cc1	-	MIC	5M	128 µg/mL
C[C@@H](c1ncncc1F)[C@](O)(Cn1cncn1)c1ccc(F)cc1F	-	MIC	Isolate W2	0.015 µg/mL
C=CCn1cc(-c2ccc(Cl)cc2)c(C(c2ccc(Cl)cc2Cl)n2ccnc2)c1	-	MIC	-	0.15 µg/mL
CC(C)(C)c1ccc(COC(Cn2ccnc2)c2ccccc2)cc1	-	MIC	CA6	128 µg/mL
O=Cc1cc(-c2ccccc2Br)no1	-	MIC	-	50 µg/mL
CCC(=O)/C=C1\Sc2ccccc2N1C1CCCCCCC1	-	MIC	ATCC 10231	>100 µg/mL
Cc1ccc(C(Cn2ccnc2)OCc2cccc3ccccc23)cc1	-	MIC	3M	>128 µg/mL
Cc1ccc(C(c2ccn(-c3ccc(F)cc3)c2)n2ccnc2)cc1	-	MIC	-	3.1 µg/mL

Repeating the first 3 entries:

| smiles | method | read-out | strain | value |
|---|---|---|---|---|
| CC(C)(C)c1ccc(COC(Cn2ccnc2)c2ccc(Cl)cc2)cc1 | - | MIC | 3M | 128 µg/mL |
| COc1ccc(C(Cc2ccccc2Cl)n2ccnc2)cc1 | - | MIC | - | 63 µg/mL |
| C[C@@H](c1ncncc1F)[C@](O)(Cn1cncn1)c1ccc(F)cc1F | - | MIC80 | JL2052 (FLU-R) | 0.5 µg/mL |